# PubChem BioAssay AID504761, Drosophila RNAi Screening Center | 2011
# Test: 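Fly genes whose silencing reduces dengue virus type 2 infection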 (primary screen)
# Cells: D.Mel-2 cells from Drosophila
# Reagents: long dsRNA against Drosophila genes
# Treatment: infection with dengue virus type 2; dose and infection time not stated
# Measured: 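Cells stained for dengue envelope protein and imaged; percent of infected cells per well on duplicate plates, ranked by infection, with stained nuclei counted for cell number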
# Scale: infection score: higher = more virus-infected cells; cell count: higher = more cells in the well
# Hit rule: 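Very low infection ranking in both replicate wells (chance probability at most 0.065), then a retest showing infection dropped 1.5-fold or more at p below 0.05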
# Calls: active = confirmed: knock-down lowers infection; inactive = not picked or not confirmed
# The screen tested about 22,000 reagents; this is an unselected part of those that have a named target and a result. Of all reagents, 116 (0.52%) are marked active. 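Calls depend on retest data that are not deposited; infection was ranked per plate without normalising between plates; the unit of the infection score is not given.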 The raw values are shown without normalisation. Names joined by + are all predicted targets of the reagent. Not given: the amount of reagent, the time to read-out.
"infection score, replicate 1","infection score, replicate 2","cell count, replicate 1","cell count, replicate 2",outcome,target,dsRNA
34.5,12.7,5736,6940,inactive,Pgant1,DRSC07095
10.6,3.17,4781,5896,inactive,CG8997,DRSC01900
13.4,2.95,3150,6681,inactive,CG8997,DRSC28002
4.24,5.93,6433,6778,inactive,CG13494,DRSC04139
3.59,3.38,5929,5777,inactive,CG13494,DRSC26588
0.46,0.76,6527,6591,inactive,Cyp12a4,DRSC16620
5.52,1.13,6068,6023,inactive,Cyp12a4,DRSC24072
1.94,1.08,5971,6043,inactive,CG31789,DRSC01645
1.44,3.31,6388,6346,inactive,CG31789,DRSC25757
3.54,6.73,6496,6298,inactive,CG43078,DRSC10292
10.7,7.54,6693,6722,inactive,CG43078,DRSC10608
3.81,2.69,5693,6664,inactive,CG43078,DRSC21541
1.48,3.61,5996,6594,inactive,CG43078,DRSC22327
20.2,12,5462,3790,inactive,CG43078,DRSC27481
0.64,2.27,781,5603,inactive,Cyp308a1,DRSC20238
4.91,4.03,6215,6330,inactive,Cyp308a1,DRSC26958
8.74,10.3,6536,6353,inactive,UQCR-14 + CG32576,DRSC25269
9.21,9.36,6678,6454,inactive,Mov10,DRSC07012
5.68,13.3,6353,5883,inactive,CG8738,DRSC07256
6.31,5.28,6579,6215,inactive,Hcs,DRSC12070
1.69,4.61,6980,6892,inactive,Hcs,DRSC12256
1.07,0.91,6260,6128,inactive,CG15882,DRSC19735
15.4,17.5,6033,5103,inactive,Coq4 + frc,DRSC10381
8.26,24.7,4700,5045,inactive,Coq4 + frc,DRSC10382
2.24,6.34,6067,6470,inactive,Pnn,DRSC16415
17.2,31.7,7094,5758,inactive,LBR,DRSC04298
18.2,24,5383,1891,inactive,LBR,DRSC29462
0.2,2.82,6090,5789,inactive,Ppat-Dpck,DRSC09744
3.31,20.9,6562,6310,inactive,rut,DRSC22976
9.65,8.28,6495,6416,inactive,CG9590,DRSC16506
3.59,7.81,6440,6007,inactive,sl,DRSC20377
3.37,1.16,5937,6134,inactive,sl,DRSC21782
4.99,3.52,5953,6586,inactive,VepD,DRSC22318
33.5,12.5,5068,1778,inactive,VepD,DRSC27653
4.76,,3065,361,inactive,CG12877,DRSC14565
2.81,5.49,6506,6085,inactive,Root,DRSC15972
9.18,8.56,4704,4392,inactive,CG7137,DRSC07017
6.85,3.79,6092,6063,inactive,FipoQ,DRSC15413
1.43,4.97,701,5850,inactive,FipoQ,DRSC24515

Reprinted from the listing, 6 entries:
"infection score, replicate 1","infection score, replicate 2","cell count, replicate 1","cell count, replicate 2",outcome,target,dsRNA
1.44,3.31,6388,6346,inactive,CG31789,DRSC25757
3.54,6.73,6496,6298,inactive,CG43078,DRSC10292
10.7,7.54,6693,6722,inactive,CG43078,DRSC10608
3.81,2.69,5693,6664,inactive,CG43078,DRSC21541
1.48,3.61,5996,6594,inactive,CG43078,DRSC22327
20.2,12,5462,3790,inactive,CG43078,DRSC27481
